Test system: influenza A/WSN/33 (H1N1)-infected mice
Assay: Effect of influenza infection and i.p. liponucleotide treatment on lung function
Format: in vivo
Conditions: MOCK (inoculated with virus diluent) mice, day 6; CDP-CHO 100 μg/mouse i.p.

C[N+](C)(C)CCOP(=O)(O)OP(=O)(O)OC[C@H]1O[C@@H](n2ccc(N)nc2=O)C(O)C1O (some centres unmarked) [CDP-CHO, CDP-choline]
HR (bpm): 730 ± 10 bpm | SaO2 (%): 99.0 ± 0.2%

Reference: patent US11154621B2, “Liponucleotide-based therapy for COPD” (priority 2017, dated 2021)
